Tested on: Arcobacter sp. strain 97AE3-12
Assay: Contamination prevention of the nutrient feed reservoir during continuous growth in a bioreactor (Example 2); ion chromatography of feed reservoir and effluent
Assay type: cell-based

SMILES | Concentration in bioreactor effluent (7) after 20 days of feeding | Concentration in bioreactor effluent (7) after 26 days of feeding
CC(O)C(=O)O (stereo not shown) [Lactate, lactate] | 0 ppm | 0 ppm
O=[N+]([O-])O [Nitrate, nitrate] | 0 ppm | 13 ppm
